Taken from: PubChem BioAssay AID504761 (Drosophila RNAi Screening Center, 2011)
The deposit covers about 22,000 reagents; below is an unselected part of those that have a named target and a result. Over the whole deposit, 116 (0.52%) were called active. 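Calls depend on retest data that are not deposited; infection was ranked per plate without normalising between plates; the unit of the infection score is not given.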 The raw values are shown without normalisation. A plus sign joins genes that one reagent is predicted to hit. Not all columns of the deposit are shown. The record does not give: the amount of reagent, the time to read-out.

Screen: 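Fly genes whose silencing reduces dengue virus type 2 infection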 (primary screen)
System: D.Mel-2 cells from Drosophila
Reagents: long dsRNA against Drosophila genes
Treatment: infection with dengue virus type 2; dose and infection time not stated
Read-out: 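Per well on two replicate plates, imaging gave the percent of cells positive for viral envelope protein, ranked by infection, and a nuclear count of cells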
Reading the numbers: infection score: higher = more virus-infected cells; cell count: higher = more cells in the well
Call rule: 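Very low infection ranking in both replicate wells (chance probability at most 0.065), then a retest showing infection dropped 1.5-fold or more at p below 0.05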
Meaning of the calls: active = confirmed: knock-down lowers infection; inactive = not picked or not confirmed

| predicted target | amplicon | infection score, replicate 1 | infection score, replicate 2 | cell count, replicate 1 | outcome |
| --- | --- | --- | --- | --- | --- |
| MSBP | DRSC20146 | 4.95 | 4.71 | 6198 | inactive |
| CG13837 | DRSC14687 | 4.67 | 2.68 | 6747 | inactive |
| regucalcin | DRSC20366 | 14.7 | 8.91 | 4642 | inactive |
| regucalcin | DRSC25592 | 12.9 | 9.85 | 6231 | inactive |
| CG15027 | DRSC19608 | 3.15 | 2.85 | 6547 | inactive |
| CG33303 | DRSC02848 | 6.16 | 4.08 | 5339 | inactive |
| CG14325 | DRSC14804 | 4.08 | 1.5 | 5903 | inactive |
| phr | DRSC07662 | 10.8 | 15.4 | 6071 | inactive |
| gNacalpha | DRSC00654 | 6 | 1.45 | 6613 | inactive |
| gNacalpha | DRSC29840 | 2.66 | 4.13 | 6246 | inactive |
| Cad86C | DRSC15587 | 3.87 | 4.17 | 6533 | inactive |
| Cad86C | DRSC15611 | 0.6 | 3.43 | 5864 | inactive |
| Cad86C | DRSC27602 | 6.69 | 10.6 | 6662 | inactive |
| Cad86C | DRSC28094 | 26.3 | 9.29 | 4707 | inactive |
| CG8060 | DRSC07064 | 5.39 | 9.77 | 6552 | inactive |
| CG31301 | DRSC22164 | 11.7 | 26.9 | 5673 | inactive |
| trbl | DRSC11901 | 11.2 | 4.85 | 6256 | inactive |
| alpha-Est10 | DRSC12613 | 0.7 | 1.57 | 6408 | active |
| alpha-Est10 | DRSC25456 | 4.43 | 1.77 | 6213 | inactive |
| baz | DRSC20309 | 2.03 | 4.85 | 6601 | inactive |
| baz | DRSC25558 | 7.94 | 4.96 | 6283 | inactive |
| Hesr | DRSC19965 | 3.95 | 9.72 | 6632 | inactive |
| Klc | DRSC11203 | 8.16 | 14.1 | 5783 | inactive |
| Klc | DRSC26363 | 9.87 | 9.45 | 4520 | inactive |
| CG13280 | DRSC02253 | 4.62 | 1.37 | 6737 | inactive |
| dany | DRSC04141 | 4.7 | 7.46 | 6664 | inactive |
| CG8138 | DRSC16386 | 10.2 | 5.07 | 6312 | inactive |
| CG42585 + CG31835 | DRSC28807 | 9.96 | 25.2 | 5632 | inactive |
| iotaTry | DRSC07634 | 27 | 35.4 | 2058 | inactive |
| sktl | DRSC04715 | 7.83 | 30.4 | 5928 | inactive |
| CG13676 | DRSC10035 | 1.25 | 1.97 | 5536 | inactive |
| CG13739 | DRSC23200 | 1.08 | 20.1 | 6228 | inactive |
| CG13739 | DRSC28741 | 12.8 | – | 1993 | inactive |
| CG12024 | DRSC08229 | 15.7 | 12.9 | 6510 | inactive |
| CG12024 | DRSC27391 | 23.2 | 4.84 | 5493 | inactive |
| Cpr67Fa1 + Cpr67Fa2 | DRSC28050 | 14.7 | 8.24 | 2497 | inactive |
| CG7772 | DRSC20056 | 1.28 | 8.89 | 6253 | inactive |
| Cdk5alpha | DRSC03290 | 0.63 | 3.86 | 6981 | inactive |
| Cdk5alpha | DRSC23301 | 1.69 | 4.61 | 6373 | inactive |
| wts | DRSC22975 | 0.61 | 1.46 | 6110 | inactive |
| wts | DRSC25766 | 0.61 | 4.38 | 6212 | inactive |
| nAChRalpha2 | DRSC17009 | 38.2 | 4.22 | 5545 | inactive |
| nAChRalpha2 | DRSC24487 | 2.36 | 0.88 | 5639 | inactive |
| CG17637 | DRSC11740 | 2.69 | 6.59 | 6068 | inactive |
| sand | DRSC07245 | 12.2 | 7.54 | 5636 | inactive |
| Prosbeta1 | DRSC07159 | – | 0.09 | 21 | inactive |
| Diedel3 | DRSC19544 | 1.45 | 1 | 5743 | inactive |
| CD98hc | DRSC15453 | 2.57 | 2.84 | 6114 | inactive |
| ppk31 | DRSC13811 | 1.47 | 2.02 | 6202 | inactive |
| ppk31 | DRSC25391 | 6.18 | 3.96 | 6209 | inactive |
| CG8209 | DRSC10970 | 3.49 | 3.79 | 5696 | inactive |
| CG8209 | DRSC28217 | – | 6 | 443 | inactive |
| Or98b | DRSC16775 | 6.98 | 0.29 | 6248 | inactive |
| Or98b | DRSC21751 | 5.22 | 11.5 | 6318 | inactive |
| Taf12 | DRSC16879 | 17.4 | 14.4 | 5803 | inactive |
| Taf12 | DRSC28181 | 16.5 | 40.9 | 4502 | inactive |
| Rx | DRSC03837 | 4.92 | 1.96 | 6327 | inactive |
| Rx | DRSC04652 | 5.65 | 11.5 | 6705 | inactive |
| Rx | DRSC25248 | 0.93 | 0.54 | 6137 | inactive |
| ND-13A | DRSC03110 | 5.96 | 13.1 | 6733 | inactive |
| ND-13A | DRSC29397 | – | 24.4 | 368 | inactive |
| Rtf1 | DRSC04085 | 17.1 | 15.9 | 5326 | inactive |
| Rtf1 | DRSC29441 | 8.27 | 14.3 | 4630 | inactive |
| Cpr65Eb | DRSC11026 | 4.32 | 3.28 | 6185 | inactive |
| Cpr65Eb | DRSC23758 | 8.13 | 12.2 | 6532 | inactive |
| Irbp18 | DRSC10612 | 2.39 | 4.01 | 5989 | inactive |
| EMC1 | DRSC15455 | 6.67 | 10.1 | 1319 | inactive |
| trbd | DRSC16494 | 8.97 | 2.93 | 3480 | inactive |
| trbd | DRSC27999 | 33.3 | 7.62 | 5770 | inactive |
| CG5162 | DRSC19935 | 4.26 | 9.04 | 6266 | inactive |
| X11Lbeta | DRSC18156 | 9.25 | 15 | 2399 | inactive |
| X11Lbeta | DRSC18158 | 4.35 | 4.46 | 6317 | inactive |
| X11Lbeta | DRSC29533 | 12 | 3.63 | 5373 | inactive |
| sced | DRSC04990 | 16.8 | 8.83 | 6295 | inactive |
